Taken from: PubChem BioAssay AID624099 (ICCB-Longwood, 2012)
The whole screen tested about 21,000 reagents; this is an unselected part. 497 of them (2.4%) were called active. 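Higher z means weaker E2 silencing; only reporter increases were scored, and knock-downs that hurt cell survival may mask genuine repressor factors.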 Entries without a mark were called inactive. No sequences are given here.

- Screen: 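Host factors E2 relies on to silence an HPV18 LCR reporter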 (primary screen)
- System: human C33A cervical carcinoma cells (HPV-negative) stably expressing BPV1 E2 and an HPV18 LCR luciferase reporter
- Reagents: siRNA pool against human genes, 40 nM
- Time to read-out: 72 h
- Detection: 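Per-well luciferase luminescence, z-scored on each plate against the plate mean and SD with control wells left out, then averaged across three replicate plates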
- Reading the numbers: mean z-score and z-score: higher = stronger reporter signal, weaker E2 silencing
- Rule for the call: 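Hit if mean z-score reaches 2 and two or more of three replicate z-scores also reach 2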

no.	Gene	mean z-score	z-score, replicate A	z-score, replicate B	z-score, replicate C
1	FAT1	2.07 (active)	2.26	2.41	1.54
2	SSX9P	-0.4	-0.26	-0.62	-0.3
3	ZNF134	-0.42	-0.55	-0.28	-0.43
4	MAP3K21	-0.15	-0.03	0.16	-0.59
5	CUL4B	0	-0.11	0.11	0
6	D2HGDH	0.33	0.28	0.54	0.17
7	RBBP5	-0.07	0.13	-0.19	-0.16
8	CCDC18	0.65	0.81	0.48	0.66
9	HMX1	1.71	1.87	1.6	1.65
10	CYP4A11	0.27	0.68	0.05	0.08
11	CCL3	-0.52	-0.24	-0.42	-0.91
12	LOC401132 (retired record)	-1.25	-0.72	-1.52	-1.52
13	SNAPC2	-0.19	-0.24	-0.15	-0.18
14	ALAD	0.41	0.21	0.33	0.69
15	NDUFA8	-0.02	-0.24	0.1	0.08
16	SPTY2D1	1.15	1.45	1.1	0.9
17	RAP1A	-0.8	-0.99	-0.84	-0.56
18	FOXI1	-0.17	-0.18	0.16	-0.48
19	ZNF564	0.46	0.6	0.09	0.69
20	MARK3	1.16	0.82	1.41	1.24
21	PWWP3A	0.29	0.59	0.06	0.21
22	HHLA1	0.21	0.11	0.2	0.32
23	PPP4R2	0.36	0.29	0.54	0.25
24	SPEF1	0.93	0.8	0.93	1.05
25	CRTAC1	-0.6	-0.88	-0.71	-0.21
26	CCDC25	-1.35	-1.44	-1.19	-1.4
27	PDYN	-1.02	-0.96	-1.08	-1.02
28	NBPF11	-0.67	-0.53	-0.94	-0.56
29	ABHD2	1.21	1.7	1.05	0.89
30	GRIK1	0.65	0.68	0.69	0.58
31	CYB5R3	0.86	0.86	0.87	0.86
32	TMCO5A	-0.52	-0.52	-0.84	-0.18
33	AMER2	2.63 (active)	2.84	2.1	2.95
34	TSGA13	0.33	0.22	0.02	0.76
35	LOC401021	0.12	-0.22	0.35	0.23
36	TMA7	2.3 (active)	2.95	1.84	2.12
37	TNFSF15	1.77	1.86	1.82	1.62
38	USP28	0.56	0.42	0.59	0.65
39	TCEAL5	0.55	0.44	0.52	0.69
